Values of other authors in patent publication US20260382653A1, “METHOD AND COMPOSITIONS FOR TREATING BURN WOUNDS” (published 2026).

Test system: biofilm
Settings: as Bi^+3; depending on the bacterial species; laboratory studies

For Bismuth, the “effective biofilm disruptor concentration” value is listed as “about 1 mg/L”.
